Measurements: publication PMC5388508, “Effects of the RGD loop and C-terminus of rhodostomin on regulating integrin αIIbβ3 recognition” (2017)
Read-outs that look alike come from different tables or passages of the source.

Assays:
[1] = target: integrin αIIbβ3 of human platelets (human (endogenous in platelets)) (UniProt P08514)
[2] = target: integrin αIIbβ3 of human platelets (human (endogenous in platelets)) (UniProt P08514); remark: listed apart in the source

Rho ^48ARGDWN-^65PR mutant (domain or fragment)
IC50 of inhibition of platelet aggregation [1]: 171 nM

Rho ^48ARGDWN-^65PRY mutant (domain or fragment)
IC50 of inhibition of platelet aggregation [1]: 155 nM

Rho ^48PRGDMP-^65PR mutant (domain or fragment)
IC50 of inhibition of platelet aggregation [2]: 155 nM
